Experimental data reported in ChEMBL document CHEMBL3124763.

By UniProt entry, the sequences of proteins in these tests, tags left out.
UniProt P09958, whole entry, looked up: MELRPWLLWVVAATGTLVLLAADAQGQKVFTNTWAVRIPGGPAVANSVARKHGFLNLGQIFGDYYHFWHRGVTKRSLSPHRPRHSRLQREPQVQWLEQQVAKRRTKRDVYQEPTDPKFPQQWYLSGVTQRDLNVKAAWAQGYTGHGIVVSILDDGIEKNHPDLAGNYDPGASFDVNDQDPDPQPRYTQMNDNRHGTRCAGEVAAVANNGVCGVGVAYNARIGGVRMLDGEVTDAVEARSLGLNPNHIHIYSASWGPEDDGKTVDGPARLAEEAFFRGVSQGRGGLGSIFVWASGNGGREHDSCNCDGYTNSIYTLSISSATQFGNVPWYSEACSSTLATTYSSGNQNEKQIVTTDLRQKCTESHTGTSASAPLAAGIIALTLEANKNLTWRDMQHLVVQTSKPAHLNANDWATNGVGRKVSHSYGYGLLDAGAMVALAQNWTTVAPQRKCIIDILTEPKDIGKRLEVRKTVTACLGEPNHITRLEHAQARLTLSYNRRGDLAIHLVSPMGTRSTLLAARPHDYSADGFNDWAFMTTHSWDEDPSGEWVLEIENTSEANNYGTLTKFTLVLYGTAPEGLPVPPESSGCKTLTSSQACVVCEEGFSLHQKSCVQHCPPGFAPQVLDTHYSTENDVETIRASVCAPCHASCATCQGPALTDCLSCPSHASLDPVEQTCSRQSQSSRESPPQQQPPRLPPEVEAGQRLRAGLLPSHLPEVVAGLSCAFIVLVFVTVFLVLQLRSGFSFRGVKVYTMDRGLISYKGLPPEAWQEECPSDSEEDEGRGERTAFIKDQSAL

Assays:
Furin (Homo sapiens) [1] = target: Furin (Homo sapiens) (UniProt P09958); test: Inhibition of furin (unknown origin) assessed as HA5-mediated membrane fusion at 12.5 to 50 uM after 36 hrs by cell-based luciferase reporter gene assay
Furin (Homo sapiens) [2] = target: Furin (Homo sapiens) (UniProt P09958); test: Inhibition of furin (unknown origin) assessed as HA5-mediated membrane fusion at 100 uM after 36 hrs by cell-based luciferase reporter gene assay

Compound | inhibition (Furin (Homo sapiens) [1]) | inhibition (Furin (Homo sapiens) [2]) [%]
CC(=O)NN(CCCNC(=N)N)CC(=O)N[C@@H](C)C(=O)N[C@@H](CCCNC(=N)N)C(=O)N[C@@H](CCCNC(=N)N)C(=O)N[C@@H](CCCNC(=N)N)C(=O)N[C@@H](CCCCN)C(=O)N[C@@H](CCCCN)C(=O)NN(CCCNC(=N)N)CC(=O)N[C@H](C(N)=O)[C@@H](C)O | Active | 12
CC(=O)N[C@@H](CCCNC(=N)N)C(=O)N[C@@H](C)C(=O)N[C@@H](CCCNC(=N)N)C(=O)N[C@@H](CCCNC(=N)N)C(=O)N[C@@H](CCCNC(=N)N)C(=O)N[C@@H](CCCCN)C(=O)N[C@@H](CCCCN)C(=O)N[C@@H](CCCNC(=N)N)C(=O)N[C@H](C(N)=O)[C@@H](C)O | Active | 51
CC(=O)N[C@@H](CCCNC(=N)N)C(=O)N[C@@H](C)C(=O)N[C@@H](CCCNC(=N)N)C(=O)N[C@@H](CCCNC(=N)N)C(=O)N[C@@H](CCCNC(=N)N)C(=O)N[C@@H](CCCCN)C(=O)N[C@@H](CCCCN)C(=O)NN(CCCNC(=N)N)CC(=O)N[C@H](C(N)=O)[C@@H](C)O | – | 77
CC(=O)N[C@@H](CCCNC(=N)N)C(=O)N[C@@H](C)C(=O)N[C@@H](CCCNC(=N)N)C(=O)N[C@@H](CCCNC(=N)N)C(=O)N[C@@H](CCCNC(=N)N)C(=O)N[C@@H](CCCCN)C(=O)N[C@@H](CCCCN)C(=O)NCc1ccc(C(=N)N)cc1 | – | 88
CC(=O)N[C@@H](CCCNC(=N)N)C(=O)N[C@@H](C)C(=O)N[C@@H](CCCNC(=N)N)C(=O)N[C@@H](CCCNC(=N)N)C(=O)N[C@@H](CCCNC(=N)N)C(=O)N[C@@H](CCCCN)C(=O)N[C@@H](CCCCN)C(=O)NC/C=C/CNC(=N)N | – | 44

Active and inactive are the calls of the source. The calls are words filed in the database; no cut-off is given here.
